Laboratory results as given in PMC12656920.
The exact form of at least one protein or probe is not confirmed. At least one verdict was read from the data and is not stated in words by the source.

By UniProt entry, the sequences of proteins in these tests, tags left out. Residues count along the entry.
UniProt P03300, 1566-1748: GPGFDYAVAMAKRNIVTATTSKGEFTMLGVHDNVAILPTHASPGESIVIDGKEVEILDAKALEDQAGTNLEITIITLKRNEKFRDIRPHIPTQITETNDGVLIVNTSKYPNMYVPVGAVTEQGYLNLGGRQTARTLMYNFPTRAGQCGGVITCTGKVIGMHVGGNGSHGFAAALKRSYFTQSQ

These sequences were tested against PV-3C main protease (Poliovirus) (UniProt P03300) (assay: NMR (CSP)). Details: recombinant protein; protein details: SUMO tag cleaved by ULP-1, 15N-labeled for NMR.

**Q.** Does CAGAGGAACACGUGGCGGCG [RNA-13] bind?
**A.** binds

**Q.** Does CGUUGGCUUGACUCA [RNA-9] bind?
**A.** binds

**Q.** Does CUCCGGUAUUGCGGUACCCUUG [RNA-11] bind?
**A.** binds

**Q.** Does CGCAGCAAACACAAG [RNA-7] bind?
**A.** binds

**Q.** Does CUACCUCAGUCGAAU [RNA-8] bind?
**A.** binds

**Q.** Does AAAAAAAAAAAAAAA [RNA-6] bind?
**A.** binds

**Q.** Does UUUUCUUUAAUUCGGAGAAAA [RNA-14] bind?
**A.** binds

**Q.** Does ACCCCAGAGGCCCAC [RNA-4] bind?
**A.** binds

**Q.** Does GGGGUUGUACCCACCCC [RNA-10] bind?
**A.** binds

**Q.** Does GAUUGGGUCAUACUGUUGUAG [RNA-12] bind?
**A.** binds

**Q.** Does UUUUUUUUUUUUUUU [RNA-3] bind?
**A.** binds

**Q.** Does CCAUCAAGAAUCCUA [RNA-5] bind?
**A.** binds

**Q.** Does AGUUCAAGAGC [RNA-15] bind?
**A.** binds
